The labels stand for the following.
B1: Nva-[Leu6, Lys(Pra-NPEG3)14; Glu28]JzTx-V(1-29) (peptide)
peptide: VYCQKWLWTCDSKRKCCEGLRCKLWCRKEI
modifications: not checked
B2: [Nle6; AzK14; Glu20; Trp29]JzTx-V(1-29) (peptide)
peptide: YCQKWLWTCDSKRKCCEGLECKLWCRKIW
modifications: not checked
B3: CyA-[Nle6, Pra17, Glu28]JzTx-V(1-29) (peptide)
peptide: B1 peptide with V1A, K15A, E18G
modifications: not checked
B4: [Phe6,Atz(500 Da EtO-PEG*-{[Phe6,Atz13*]GpTx-1(1-34)})13]GpTx-1(1-34) (peptide)
peptide: DCLGFFRKCIPDADKCCRPNLVCSRTHKWCKYVF
modifications: not checked
B5: Nva-[Nle6; Lys(Pra)14; Glu20; Tyr28]JzTx-V(1-29) (peptide)
peptide: B1 peptide with R21E, E29Y
modifications: not checked
B6: CyA-[Nle6, Lys(Pra-NPEG3)17]JzTx-V(1-29) (peptide)
peptide: AYCQKWLWTCDSKRACCKGLRCKLWCRKII
modifications: not checked
B7: [Nle6; Atz(NPEG10)17; Glu28]JzTx-V(1-29) (peptide)
peptide: YCQKWLWTCDSKRACCAGLRCKLWCRKEI
modifications: not checked
B8: CyA-[Nle6, Lys(Pra)14, Glu20, Tyr28]JzTx-V(1-29) (peptide)
peptide: B1 peptide with V1A, R21E, E29Y
modifications: not checked
B9: CyA-[Nle6, Lys(Atz(NPEG10)-NPEG3)14]JzTx-V(1-29) (peptide)
peptide: B6 peptide with A15K, K18E
modifications: not checked
B10: Nva-[Leu6; Lys(Pra)14; Glu20; Trp29]JzTx-V(1-29) (peptide)
peptide: B1 peptide with R21E, E29I, I30W
modifications: not checked
B11: CyA-[Nle6, Pra17, Glu20]JzTx-V(1-29) (peptide)
peptide: B6 peptide with K18G, R21E
modifications: not checked
B12: CyA-[Nle6, Pra17, Glu20, Tyr28]JzTx-V(1-29) (peptide)
peptide: B6 peptide with K18G, R21E, I29Y
modifications: not checked
B13: CyA-[Nle6, Lys(Pra)14, Glu20]JzTx-V(1-29) (peptide)
peptide: B6 peptide with A15K, K18E, R21E
modifications: not checked
B14: CyA-[Nle6, Lys(Pra-NPEG3)14]JzTx-V(1-29) (peptide)
peptide: B6 peptide with A15K, K18E
modifications: not checked
B15: Nva-[Leu6, Lys(Pra)14]JzTx-V (peptide)
peptide: B1 peptide with E29I
modifications: not checked
B16: Nva-[Nle6, Lys(Pra)14]JzTx-V(1-29) (peptide)
peptide: B1 peptide with E29I
modifications: not checked
B17: [Atz(NPEG10)1; Nle6; Glu20]JzTx-V(1-29) (peptide)
peptide: ACQKWLWTCDSKRACCEGLECKLWCRKII
modifications: not checked
B18: Nva-[Leu6; Lys(Pra)14; Glu20; Tyr28]JzTx-V(1-29) (peptide)
peptide: B1 peptide with R21E, E29Y
modifications: not checked
B19: Nva-[Nle6; Lys(Pra)14; Glu20, Trp29]JzTx-V(1-29) (peptide)
peptide: B1 peptide with R21E, E29I, I30W
modifications: not checked
B20: Nva-[Nle6; Lys(Pra)14; Glu28]JzTx-V(1-29) (peptide)
peptide: B1 peptide
modifications: not checked
B21: Nva-[Nle6, Lys(Pra-NPEG3)14]JzTx-V(1-29) (peptide)
peptide: B1 peptide with E29I
modifications: not checked

Numbering of substitutions follows the chain as printed. Several values for one entry are separate records, joined by “and”; a condition that tells them apart may be missing. Equal entries are not always repeated.

In one assay the target is human voltage-gated sodium channel Nav1.5 (human), Q14524. Put plainly: cell-based or functional assay.
For the molecule B1, the PX hNav1.5 Tonic IC50 worked out at 3960 nM.

For B2, the PX hNav1.5 Tonic IC50 is 1970 nM. On the same count and under the same terms, as for B3, the figure is 710 nM.

Another assay addresses human voltage-gated sodium channel Nav1.7 (human), Q15858. Put plainly: cell-based or functional assay.
B4 yielded a Nav1.7 PX IC50 of 19 nM. B5 yielded a PX hNav1.7 Tonic IC50 of 2.96 nM. In the case of B6, the PX hNav1.7 Tonic IC50 worked out at 3.64 nM.

For B7, the PX hNav1.7 Tonic IC50 is 5.88 nM. For B8, the PX hNav1.7 Tonic IC50 turned out to be 0.05 nM. Still for that read-out and setting: as for B9, the figure is 6.37 nM; as for B10, 10.4 nM; as for B11, 2.84 nM. Turning to B12, the PX hNav1.7 Tonic IC50 was 87.1 nM. Same read-out and setting: for B13 the value was more than 100 nM; for B14, 0.885 nM and 0.845 nM.

For B15, the PX hNav1.7 Tonic IC50 was 2.38 nM and 1.57 nM. On to B1, for which the PX hNav1.7 Tonic IC50 is 4.62 nM. Same read-out and setting: as for B2, the figure is 1.15 nM. As for B16, the PX hNav1.7 Tonic IC50 was 1.62 nM and 1.63 nM. Still for that read-out and setting: as for B17, the figure is 6.48 nM. Same read-out and setting: for B18 the value was 1.95 nM. On to B19, for which the PX hNav1.7 Tonic IC50 was 9.59 nM. The molecule B20 yielded a PX hNav1.7 Tonic IC50 of 2.19 nM. Same read-out and setting: as for B21, the figure is 1.43 nM and 1.56 nM.

In the next assay the target is human voltage-gated sodium channel Nav1.4 (human), P35499. As to the kind of experiment: cell-based or functional assay.
As to B7, the Nav1.4/Nav1.7 came to 11 fold and the PX hNav1.4 Tonic IC50 worked out at 65.9 nM. On to B8, for which the PX hNav1.4 Tonic IC50 was 964 nM. B9 registered a Nav1.4/Nav1.7 of 3 fold and a PX hNav1.4 Tonic IC50 of 16.6 nM. Regarding B11, the PX hNav1.4 Tonic IC50 was 278 nM.

With B12, the PX hNav1.4 Tonic IC50 came to 1760 nM.

B13 came in with a PX hNav1.4 Tonic IC50 of more than 10000 nM. As to B15, the PX hNav1.4 Tonic IC50 amounted to 16.1 nM. Molecule B1 displayed a PX hNav1.4 Tonic IC50 of 451 nM. The same measure, in the same setting: as for B2, the figure is 635 nM; as for B16, 20.5 nM. In turn, B17 showed a Nav1.4/Nav1.7 of 85 fold and a PX hNav1.4 Tonic IC50 of 549 nM. In turn, B20 returned a PX hNav1.4 Tonic IC50 of 217 nM.

The molecule B21 came in with a PX hNav1.4 Tonic IC50 of 16.5 nM.

For the origin of these results see patent publication US20150023988A1.
